Compound potency records, mixed from different reports. Data source: NIAID ChemDB in PubChem.

All rows: growth or infection tests; species: Mycobacterium tuberculosis

Rows are shuffled and stem from different studies. An empty or dashed field is not shown. a–b is a range or a potency band. Percent inhibition refers to the dose given; in toxicity tests it is the harm to the cells. ECn is the concentration giving n% inhibition of infection, replication or growth. MIC bound: limit read from a one-dose screen. MIC50, MIC90 and the like: level of inhibition, or share of isolates inhibited.

SMILES,dose,measure,strain,read by,cell line,conditions,value
O=C(c1ccc(Oc2ccc(C(=O)C(Cl)Cl)cc2)cc1)C(Cl)Cl,,MIC,H37Rv,,,,3.125 µg/mL
COc1cc(-c2nnn(C(C)c3ccc(F)cc3)n2)ccc1S(=O)(=O)NCC(N)=O,,MIC,H37Rv,resazurin,,,10–25 µM
CN[C@@H]1[C@H](O[C@H]2[C@H](O[C@H]3[C@H](O)[C@@H](O)[C@H](N=C(N)N)[C@@H](O)[C@@H]3N=C(N)N)O[C@@H](C)[C@]2(O)C=O)O[C@@H](CO)[C@H](O)[C@H]1O,,MIC,3660/83 (streptomycin-resistant),,,,25–50 µg/mL
CP1(=S)CCC2C3=C(CCC21)CC(=O)CC3,,MIC bound,H37Rv,resazurin,,,>6.25 µg/mL
O=C(c1cccc(-c2ccccc2)c1)C(Cl)Cl,,MIC,H37Rv,,,,6.25 µg/mL
COc1cc(C(O)(CCN(C)C)C(c2cc(-c3cccc(F)c3)cnc2OC)c2cccc(OC)c2F)cc(OC)n1,,MIC90,H37Rv,resazurin,,,6.4 µM
O=S(=O)(NCCO)c1ccc(-c2nnn(Cc3ccc(F)cc3)n2)cc1,,MIC,H37Rv,resazurin,,,<0.1 µM
O=C(NNc1nc(Nc2ccccn2)nc(Nc2c(Cl)cccc2Cl)n1)c1ccncc1,0.0311 µM,inhibition,H37Rv,BACTEC / radiometric,,,91%
O=C(Nc1cccc(Cl)c1)c1cc(Cl)ccc1OS(=O)(=O)c1ccccc1,,MIC,H37Rv,,,21 d,4 µM
CCCCCCCCCCCCCCC(Oc1ccc(Cl)cc1Cl)C(=O)O,,MIC,H37Rv,,,,100 µg/mL
O=C(NNc1nc(Nc2ccccc2)nc(Nc2ccccn2)n1)c1ccncc1,0.711 µM,inhibition,H37Rv,BACTEC / radiometric,,,71%
CCC1(O)CCSC(c2ccccc2)=N1,6.25 µg/mL,inhibition,H37Rv,,,,76%
COc1cc(C(O)(CCN(C)C)C(c2cc(-c3cccc(C#N)c3)cnc2OC)c2cccc(OC)c2F)cc(OC)n1,,MIC90,H37Rv,resazurin,,,6.2 µM
O=C(C=Cc1ccc(O)cc1)NCCc1c[nH]c2ccc(O)cc12,,MIC bound,H37Rv,BACTEC,,,>12.5 µg/mL
COc1cc(C(O)(CCN(C)C)C(c2cc(-c3ccccc3C#N)cnc2OC)c2cccc(OC)c2F)cc(OC)n1,,MIC90,H37Rv,resazurin,,,16.8 µM
COc1cc(C2c3cc4c(cc3C(OC3OC(CO)C(O)C(O)C3O)C3COC(=O)C23)OCO4)cc(OC)c1OC,12.5 µg/mL,inhibition,H37Rv,BACTEC,,,19%
O=C(c1ccccc1)c1ccc(-c2ccc(Br)cc2)cc1,,MIC,ATCC 27294,,,,≥32 µg/mL
COc1ncnc2c1cnn2Cc1cnnn1COCCO,,EC50,H37Rv,BACTEC,,,>12.5 µg/mL
COc1ccccc1Nc1nc(NNC(=O)c2ccncc2)nc(Nc2ccccn2)n1,0.0677 µM,inhibition,H37Rv,BACTEC / radiometric,,,81%
COc1cc([C@@](O)(CCN(C)C)[C@@H](c2cc(-c3ccccn3)cnc2OC)c2cccc(OC)c2F)cc(OC)n1,,MIC90,H37Rv,resazurin,,,22.55 µM
Cc1ccc(Nc2nc(NNC(=O)c3ccncc3)nc(Nc3ccccn3)n2)cc1,0.1127 µM,inhibition,H37Rv,BACTEC / radiometric,,,77%
NC(=O)c1ncc(-c2ccc(Cl)cc2)[nH]c1=O,,MIC,H37Rv,BACTEC,,,≥12.5 µg/mL
O=C(Nc1cccc(F)c1)c1cc(Cl)ccc1OS(=O)(=O)c1ccccc1,,MIC,H37Rv,,,21 d,16 µM
NC(=O)CNS(=O)(=O)c1ccc(-c2nnn(Cc3ccc(F)cc3)n2)cc1,,MIC,H37Rv,resazurin,,,<0.1 µM
CO[C@H]1/C=C/O[C@@]2(C)Oc3c(C)c(O)c4c(O)c(c5c(c4c3C2=O)NC2(CCN(CC(C)C)CC2)N=5)=NC(=O)/C(C)=C\C=C\[C@H](C)[C@H](O)[C@@H](C)[C@@H](O)[C@@H](C)[C@H](OC(C)=O)[C@@H]1C,,MIC,H37Rv,,,,≤0.125 µg/mL
C=C(CO)C(=O)OC1CC(=C)C2CC(O)C(=C)C2C2OC(=O)C(=C)C12,,MIC,H37Rv,BACTEC,,,≥12.5 µg/mL
O=C(Nc1cccc(Br)c1)c1ccc(Cl)cc1OS(=O)(=O)c1ccccc1,,MIC,H37Rv,,,21 d,16 µM
NCCCn1[nH]c(=O)c2ccncc2c1=O,12.5 µg/mL,inhibition,H37Rv,BACTEC,,,0%
OCCOCn1cc(Cn2ncc3c(SCc4ccccc4)ncnc32)nn1,,EC50,H37Rv,BACTEC,,,<6.25 µg/mL
Cc1cc(=O)n2[nH]c(N3CCCC3)c(C(=O)Nc3ccc(Cl)c(Cl)c3)c2n1,,MIC,H37Rv,resazurin,,,25 µg/mL
CCCCCCCCCCCCCCC(Oc1ccc(C)cc1)C(=O)O,,MIC,H37Rv,,,,1 µg/mL
O=c1c2ccccc2nnn1O,,MIC bound,H37Rv,BACTEC,,,>12.5 µg/mL
CC[C@@H](CO)NCCN[C@@H](CC)CO,,MIC,H37Rv,,,,0.47 µg/mL
CCCCOC(=O)c1ccc(Nc2cc(C)nc3ccc(OC)cc23)cc1,,MIC100,H37Rv,,,,2 µg/mL
COc1ccc(-c2csc(Nc3ccc(C)cc3)n2)cc1,,MIC,,resazurin,,,13 µM
CC(C)OC(=S)Nc1ccc(Cl)c(COC(C)(C)C)c1,,MIC,H37Rv,,VERO,,3.13 µg/mL
COc1ccc(NC(=O)c2c(N3CCOCC3)[nH]n3c(=O)cc(C)nc23)cc1,,MIC,H37Rv,resazurin,,,25 µg/mL
Cc1cccc(Nc2nc(NNC(=O)c3ccncc3)nc(Nc3ccccn3)n2)c1,0.1218 µM,inhibition,H37Rv,BACTEC / radiometric,,,74%
COc1ccc2c(c1O)-c1cc(O)cc3c1C(C2)N(C)CC3.Cl,,MIC,H37Rv,BACTEC,,,≥12.8 µg/mL
NCC[C@H](O)C(=O)N[C@@H]1C[C@H](N)[C@@H](O[C@H]2O[C@H](CN)[C@@H](O)[C@H](O)[C@H]2O)[C@H](O)[C@H]1O[C@H]1O[C@H](CO)[C@@H](O)[C@H](N)[C@H]1O,,MIC,Isolate CKN64-20 (rrs A1401G mutation),,,,>64 µg/mL
CN1C(=O)c2ccccc2N(C)C(=O)c2ccccc21,12.5 µg/mL,inhibition,H37Rv,BACTEC,,,-10%
O=C(Nc1cccc(C(F)(F)F)c1)c1cc(Cl)ccc1OS(=O)(=O)c1ccccc1,,MIC,H37Rv,,,21 d,4 µM
CCCCCCCCCCC(Oc1ccccc1Cl)C(=O)O,,MIC,H37Rv,,,,1 µg/mL
O=C(Nc1cccc(Br)c1)c1cc(Cl)ccc1OS(=O)(=O)c1ccccc1,,MIC,H37Rv,,,14 d,8 µM
Cc1cc(=O)n2[nH]c(Nc3ccc(Cl)c(Cl)c3)c(C(=O)Nc3cccc(C)c3C)c2n1,,MIC,H37Rv,resazurin,,,50 µg/mL
O=C(c1ccc(-c2ccccc2)cc1)C(Br)Br,,MIC,H37Rv,,,,12.5 µg/mL
Cn1c(=O)cc2c3c(c(N)ccc31)C(=O)c1ccccc1-2,,MIC bound,H37Rv,BACTEC,,,≤12.5 µg/mL
CS(=O)(=O)c1ccc(C(=O)c2ccc(-c3ccc(Br)cc3)cc2)cc1,,MIC,ATCC 27294,,,,8 µg/mL
NCCc1ccc2oc3cc(=O)c4ccccc4c-3nc2c1,,MIC,H37Rv,BACTEC,,,3.13 µg/mL
O=C(CCl)c1ccc(S(=O)(=O)c2ccccc2)cc1,,MIC,H37Rv,,,,100 µg/mL
CNc1ncnc2c1cnn2Cc1cnnn1COCCO,,EC50,H37Rv,BACTEC,,,>12.5 µg/mL
CO[C@H]1/C=C/O[C@@]2(C)Oc3c(C)c(O)c4c(O)c(c(/C=N/N5CCN(C6CCCC6)CC5)c(O)c4c3C2=O)NC(=O)/C(C)=C\C=C\[C@H](C)[C@H](O)[C@@H](C)[C@@H](O)[C@@H](C)[C@H](OC(C)=O)[C@@H]1C,,MIC,RM22,,,,32 µg/mL
COc1cc([C@](O)(CCN(C)C)[C@@H](c2cc(-c3ccc(C#N)cc3)cnc2OC)c2cccc(OC)c2F)cc(OC)n1,,MIC90,H37Rv,resazurin,,,2.25 µM
CCCC1CC(C)(O)N=C(c2ccccc2)S1,6.25 µg/mL,inhibition,H37Rv,,,,15%
O=C(c1ccc(CCc2ccc(C(=O)C(Br)Br)cc2)cc1)C(Br)Br,,MIC,H37Rv,,,,6.25 µg/mL
O=C(NNc1nc(Nc2cccc([N+](=O)[O-])c2)nc(Nc2ccccn2)n1)c1ccncc1,0.1109 µM,inhibition,H37Rv,BACTEC / radiometric,,,72%
CC(=O)Oc1ccc(C(=O)c2ccc(-c3ccc(Br)cc3)cc2)cc1,,MIC,ATCC 27294,,,,≥32 µg/mL
COc1cc([C@@](O)(CCN(C)C)[C@@H](c2cc(-c3ccc(C#N)cc3)cnc2OC)c2cccc(OC)c2F)cc(OC)n1,,MIC90,H37Rv,resazurin,,,11.16 µM
COc1c(N2C[C@@H]3CCCN[C@@H]3C2)c(F)cc2c(=O)c(C(=O)O)cn(C3CC3)c12,,MIC,H37Rv,,,,≤0.125 µg/mL
CC(C)C1CC(C)(O)N=C(c2ccccc2)S1,6.25 µg/mL,inhibition,H37Rv,,,,0%
O=C(Nc1ccc(Br)cc1)c1ccc(Br)cc1OS(=O)(=O)c1ccccc1,,MIC,H37Rv,,,14 d,8 µM
O=C(COC(=O)c1cccc(S(=O)(=O)N2CCc3ccccc32)c1)NNC(=O)c1cccs1,,MIC100,H37Rv,,,,2 µg/mL
CCCCCCCCCCC(Oc1ccccc1)C(=O)O,,MIC,H37Rv,,,,400 µg/mL
NNC(=O)c1ccncc1,,MIC,H37Rv,,,,≤0.125 µg/mL
CS(=O)CCC1C(=O)OC(C(C)(C)C)N1C(=O)c1ccccc1,,MIC bound,H37Rv,BACTEC,,,>12.5 µg/mL
O=C(CCl)c1cccc(-c2ccccc2)c1,,MIC,H37Rv,,,,50 µg/mL
COC(=O)N1C=CC2=C(C)C3Nc4ccccc4C3C(C)=C2C1,6.25 µg/mL,inhibition,H37Rv,resazurin,,,94%
O=S(=O)(NCCO)c1ccc(-c2nnn(Cc3ccc(F)cn3)n2)c(F)c1,,MIC,H37Rv,resazurin,,,<0.1 µM
CC(=O)NC[C@H]1CN(c2ccc(N3CCOCC3)c(F)c2)C(=O)O1,,MIC,H37Rv,,,,0.125 µg/mL
CCn1c2ccccc2nc2cc3c(cc21)c(Cl)c(=O)c1ccccc13,,MIC bound,H37Rv,BACTEC,,,≤12.5 µg/mL
Oc1cc(Cl)ccc1Oc1ccc(Cl)cc1Cl,,MIC,H37Rv,fluorescence,,,50 µg/mL
COc1cc([C@](O)(CCN(C)C)[C@@H](c2cc(-c3ccncc3)cnc2OC)c2cccc(OC)c2F)cc(OC)n1,,MIC90,H37Rv,resazurin,,,11.42 µM
CC[C@H]1OC(=O)[C@H](C)C(=O)[C@H](C)[C@@H](O[C@@H]2O[C@H](C)C[C@H](N(C)C)[C@H]2O)[C@](C)(OC)C[C@@H](C)C(=O)[C@H](C)[C@H]2N(NCCCc3ccnc4ccccc34)C(=O)O[C@]12C,,MIC,H37Rv,,,,10 µg/mL
O=C(c1ccc(CCc2ccccc2)cc1)C(Br)Br,,MIC,H37Rv,,,,12.5 µg/mL
Nc1ncnc2c1cnn2Cc1cn(COCCO)nn1,,EC50,H37Rv,BACTEC,,,>12.5 µg/mL
COc1ccc2c(c1OC)[C@H]1N(C)CCc3cc4c(cc3[C@@]1(OC)C2=O)OCO4,,MIC bound,H37Rv,BACTEC,,,>12.5 µg/mL
CSc1ncnc2c1cnn2Cc1cnnn1COCCO,,EC50,H37Rv,BACTEC,,,>12.5 µg/mL
CSC(=S)N/N=C(\C)c1cccc(C)n1,128 µg/mL,inhibition,H37Rv,BACTEC,,,99%
COc1cc([C@](O)(CCN(C)C)[C@@H](c2cc(-c3ccc(Cl)cc3)cnc2OC)c2cccc(OC)c2F)cc(OC)n1,,MIC90,H37Rv,resazurin,,,1.45 µM
CCCCCCCCCCC(Oc1ccc(Cl)cc1Cl)C(=O)O,,MIC,H37Rv,,,,10 µg/mL
C[C@@H]1CN(c2c(F)c(N)c3c(=O)c(C(=O)O)cn(C4CC4)c3c2F)C[C@H](C)N1,,MIC,H37Rv,,,,0.125 µg/mL
NC(=O)c1csc([C@@H]2O[C@H](COP(=O)(O)O)[C@@H](O)[C@H]2O)n1,,MIC bound,H37Rv,BACTEC,,,>12.5 µg/mL
CCCCCCCCCCCCCCC(Oc1ccccc1Cl)C(=O)O,,MIC,H37Rv,,,,1 µg/mL
C[N+](C)=c1ccc2nc3c(cc(Nc4ccccc4)c4ccccc43)oc-2c1.[Cl-],,MIC,H37Rv,BACTEC,,,≥128 µg/mL
CCCCCC1CC(C)(O)N=C(c2ccccc2)S1,,EC50,H37Rv,,,,<6.25 µg/mL
NC(=O)c1nnn2c1nc(N)c1ccccc12,12.5 µg/mL,inhibition,H37Rv,BACTEC,,,-10%
CCCCCCCCCCCCCCC(C(=O)O)S(=O)(=O)c1ccccc1,,MIC,H37Rv,,,,1 µg/mL